{
  "source": "patent US20120094280",
  "molecular_target": "T1, M.HhaI DNA cytosine-C5 methyltransferase (UniProt P05102)",
  "T1 sequence (looked up, limits assumed)": "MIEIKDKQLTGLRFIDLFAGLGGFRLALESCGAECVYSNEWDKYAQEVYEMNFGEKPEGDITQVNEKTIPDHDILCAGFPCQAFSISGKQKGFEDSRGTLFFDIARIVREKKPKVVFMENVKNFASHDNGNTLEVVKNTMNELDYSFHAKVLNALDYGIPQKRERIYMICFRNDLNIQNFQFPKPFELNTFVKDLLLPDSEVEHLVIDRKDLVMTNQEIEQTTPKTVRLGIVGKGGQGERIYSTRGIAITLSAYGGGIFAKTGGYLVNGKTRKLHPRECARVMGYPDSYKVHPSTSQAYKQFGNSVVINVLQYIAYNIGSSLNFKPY",
  "assay": "activity assay",
  "settings": "aldehyde coupling to target C5, HPLC-MS; pH 7.0, 1 mM EDTA, 15 mM NaCl, room temperature; purified recombinant protein",
  "note": "Where a protein sequence is shown, tags need not be part of it.",
  "data": [
    {"sequence": "TAATAATGCGCTAATAATAATAAT / ATTATTATTATTAGCGCATTATT [duplex I:II]", "values": [
      {"measurement": "activity on this sequence", "result": "active"}
    ]}
  ]
}
